Pooled drug test results. Numbers come from NIAID ChemDB, via PubChem.

All rows: growth or infection tests; species: Mycobacterium tuberculosis

MIC50, MIC90 and the like: level of inhibition, or share of isolates inhibited. Blank or dashed fields: not listed here. Inhibition is in % at the dose shown (toxicity tests: loss of growth or viability). ECn is the concentration giving n% inhibition of infection, replication or growth. MIC bound comes from a single tested concentration. Neighbouring rows are from separate reports.

structure	strain or isolate	changes	method	setting	endpoint	dose	result
Cc1c(C(=O)C/C(=N\NC(=O)C[n+]2ccccc2)C(=O)Nc2ccccc2)[n+](=O)c2ccccc2n1[O-].[Cl-]	H37Rv		BACTEC		MIC bound		>12.5 µg/mL
CCCCCCCCCCCNCCNC(C)CC					MIC		25 µM
O=C1c2cc(C3OC=CO3)ccc2-n2c1nc1ccncc1c2=O	H37Rv				MIC		0.13 µg/mL
Cc1cc(=O)oc2c(C)c3oc(CBr)c(Br)c3cc12	H37Rv		resazurin		inhibition	6.25 µg/mL	17%
NC[C@@H]1O[C@H](O[C@H]2[C@@H](O)[C@H](O[C@@H]3[C@@H](O)[C@H](N)C[C@H](N)[C@H]3O[C@H]3O[C@H](CO)[C@@H](O)[C@H](O)[C@H]3N)O[C@@H]2CO)[C@H](N)[C@@H](O)[C@@H]1O	MTB21 (S)				MIC		<0.09 µg/mL
O=C(NCc1ccc(N2CCN(S(=O)(=O)C(F)(F)F)C=N2)c(F)c1)c1c(C(F)F)nc2cnccn12			GFP		EC50		0.064 µM
CCOC(=O)c1ccc2nc(-c3ccc(O)cc3O)[nH]c2c1	H37Rv		resazurin / fluorescence		MIC		>100 µM
CCc1nc2cc(Cl)c(C)cn2c1C(=O)NCc1ccc(N2CCN(S(=O)(=O)C(F)(F)F)C=N2)c(F)c1			GFP		EC50		0.0055 µM
COc1ccc(C=C2C=C(C(C)(C)C)C(=O)C(C(C)(C)C)=C2)cc1	H37Rv		BACTEC		MIC bound		≤12.5 µg/mL
CCCCNC(=O)c1cc(-c2ccccc2)sc1N	H37Rv		resazurin		MIC		>100 µg/mL
COc1ccc(C(=O)/C=C/c2ccccc2Cl)cc1	H37Rv		MTT	7 d	MIC		32 µg/mL
COc1cccc2c(=O)n3c(nc12)C(=O)c1cc(C(=O)O)ccc1-3	H37Rv				MIC		>8 µg/mL
COc1ccc(C(=O)/C=C/c2ccc(F)cc2Cl)cc1	H37Rv		MTT	21 d	MIC		64 µg/mL
CCOC(=O)c1c(NC(=O)c2c(F)c(F)c(F)c(F)c2F)sc2c1CCNC2=O	ATCC35838		turbidity		EC50		0.34 µM
CCCCS(=O)(=O)Nc1ccc2[nH]c(C(N)=O)c(C)c2c1	DRM167 8x2	A119T DG167-resistant	resazurin		MIC90		>100 µM
CCOC(=O)c1ccc2nc(-c3ccc(N4CCOCC4)cc3)[nH]c2c1	H37Rv		resazurin / fluorescence		EC90		>100 µM
NC[C@H]1O[C@H](O[C@H]2[C@H](O)[C@@H](O[C@H]3O[C@H](CO)[C@@H](O)[C@H](N)[C@H]3O)[C@H](N)C[C@@H]2N)[C@H](O)[C@@H](O)[C@@H]1O	A62				MIC		20 µg/mL
COc1nc2ccc(Br)cc2cc1[C@@H](c1ccccc1)[C@@](O)(CCN(C)C)c1cccc2ccccc12	clinical isolate MAL020165		resazurin		MIC90		0.03125 µg/mL
O=C1c2cc(I)ccc2-n2c1nc1ncccc1c2=O	10038 RFLP:W				MIC		0.06 µg/mL
COC1=NN(c2ccc(CNC(=O)c3c(C(F)(F)F)nc4ncc(Cl)cn34)cc2F)CCN1S(=O)(=O)C(F)(F)F			GFP		EC50		0.0024 µM
COc1c(/C=N/NC(N)=O)c(OC)c(OC)c2c1CCO2	H37Rv		BACTEC		inhibition	12.5 µg/mL	-4%
C[C@@H]1CN(c2c(F)c(N)c3c(=O)c(C(=O)O)cn(C4CC4)c3c2F)C[C@H](C)N1	100 isolates				MIC90		0.5 µg/mL
CC(C)c1ccc2c(c1)CC[C@H]1[C@](C)(CNCCNCc3ccc4c(c3)OCO4)CCC[C@]21C					MIC		12.5 µM
C[C@]1(COc2ccc(N3CCC(Oc4ccc(OC(F)(F)F)cc4)CC3)cc2)Cn2cc([N+](=O)[O-])nc2O1	18 strains (SM-resistant)				MIC90		0.012 µg/mL
CC1COc2c(N3CCN(C)CC3)c(F)cc3c(=O)c(C(=O)O)cn1c23	H37RV (DRUG-SUS)				MBC		4 µg/mL
COC1=C(OC)C(=O)C(C/C=C(\C)CCCC(C)CCCC(C)CCCC(C)C)=C(C)C1=O	H37Rv		resazurin		MIC bound		>6.25 µg/mL
CCOC(=O)c1c(NC(=O)c2c(F)c(F)c(F)c(F)c2F)sc2c1CCN(C(=O)OC(C)(C)C)C2	H37Rv		resazurin		MIC		>100 µg/mL
C[C@H](O)[C@H](O)[C@@H](O)[C@@H](O)[C@H](O)C(=O)NNc1ccccc1	H37Rv		resazurin		inhibition	6.25 µg/mL	-5%
c1ccc(C(CCNCCN2CCCCC2)c2ccccc2)cc1					MIC		50 µM
CCNC(=O)c1c(NC(=O)c2c(F)c(F)c(F)c(F)c2F)sc2c1CCN(CC)C2	ATCC35838		turbidity		EC50		2.6 µM
Cc1ccc(NCCNCC(C)(C)O)c2c(=O)c3ccccc3sc12	H37Rv		BACTEC		MIC		6.25 µg/mL
CCN1CCc2c(sc(NC(=O)c3c(F)c(F)c(F)c(F)c3F)c2C#N)C1	ATCC35838		turbidity		EC90		13 µM
CC[C@@H](CO)NCCN[C@@H](CC)CO	H37Rv		resazurin / fluorescence		EC50		3.45 µM
NC(=O)c1cnccn1	VA205/niacin+				MIC		>2048 µg/mL
O=C1c2cc(F)ccc2-n2c1nc1ccncc1c2=O	H37Rv				MIC		0.5 µg/mL
COc1ccc(C(=O)/C=C/c2ccc(F)cc2)c(F)c1	H37Rv		MTT	7 d	MIC		32 µg/mL
CCOC(=O)c1c(NC(=O)c2c(F)c(F)c(F)c(F)c2F)sc2c1CCOC2	H37Rv	katG Y155 truncation mutant	turbidity		EC90		0.4 µM
CCCCS(=O)(=O)Nc1ccc2[nH]c(C(=O)Nc3cccc4ccccc34)c(C)c2c1	H37Rv		resazurin		MIC90		25 µM
O=C(/C=C/c1ccccc1Cl)c1ccccc1	H37Rv		MTT	7 d	MIC		32 µg/mL
CO[C@H]1/C=C/O[C@@]2(C)Oc3c(C)c(O)c4c(=O)c(c5oc6cc(N7CCN(CC(C)C)CC7)cc(=O)c6nc5c4c3=C2O)NC(=O)/C(C)=C\C=C\[C@H](C)[C@H](O)[C@@H](C)[C@@H](O)[C@@H](C)[C@H](OC(C)=O)[C@@H]1C	2242 (rifampicin-susceptible)				MIC		0.0078 µg/mL
Cc1cc(C)c2nc3n(c(=O)c2c1)-c1ccc(F)cc1C3=O	H37Rv				MIC		0.13 µg/mL
CCOC(=O)NC([N-][n+]1ccccc1)c1ccccc1	H37Rv		BACTEC		MIC bound		>12.5 µg/mL
CC(CNCCC(c1ccccc1)c1ccccc1)NC[C@@H]1CC[C@H]2C[C@@H]1C2(C)C					MIC		12.5 µM
O=C(/C=C/c1ccccc1)c1ccccc1	H37Rv		resazurin	7 d	MIC		16 µg/mL
CC(NCCN[C@@H](C)C1CCCCC1)C12CC3CC(CC(C3)C1)C2					MIC		50 µM
N#CCCN(CCC#N)c1ccc(/C=C2/N=C(c3cc([N+](=O)[O-])ccc3Cl)N(NC(=O)CC(=O)Nc3ccccc3Cl)C2=O)cc1	H37Rv		BACTEC		MIC bound		>12.5 µg/mL
CCCCS(=O)(=O)Nc1ccc2[nH]c(C(=O)NC3(C)CC3)c(C)c2c1	H37Rv		resazurin		MIC90		1.6 µM
COc1ccc(C(=O)/C=C/c2ccccc2Cl)c(F)c1	H37Rv		resazurin	14 d	MIC		32 µg/mL
CCOC(=O)c1ccc2c(c1)nc(-c1cccc(-c3ccc(F)cc3)c1)n2CCN1CCCC1=O	H37Rv		resazurin / fluorescence		MIC		>100 µM
Cc1cccc2c1[N+](C)=C(/C=C/c1cc(C)c3cccnc3c1O)C2(C)C	H37Rv		resazurin		inhibition	6.25 µg/mL	31%
CCOC(=O)c1ccc2c(c1)nc(-c1ccc(C(=O)O)cc1)n2CCN1CCCOC1	H37Rv		resazurin / fluorescence		MIC		>100 µM
O=C1c2cc(Cl)ccc2-n2c1nc1ncccc1c2=O	H37Rv				MIC		0.03 µg/mL
NS(=O)(=O)c1ccc(NC(=O)C(=O)C(O)C(O)C(O)CO)cc1	H37Rv		resazurin		inhibition	6.25 µg/mL	31%
CCCCS(=O)(=O)Nc1ccc2[nH]c(C(=O)N3CCCCC3)c(C)c2c1	H37Rv		resazurin		MIC90		6.25 µM
NC(=O)c1nc[nH]c1F	H37Rv		resazurin		inhibition	6.25 µg/mL	21%
NNC(=O)c1ccncc1	Clinical isolate BRF 23	INH resistant	resazurin		MIC		2 µg/mL
CC(CNCC(c1ccccc1)c1ccccc1)N[C@@H]1C[C@@H]2C[C@H]([C@H]1C)C2(C)C					MIC		50 µM
COC1=NN(c2ccc(CNC(=O)c3c(C(F)F)nc4ncc(Cl)cn34)cc2F)CCN1S(=O)(=O)C(F)(F)F			GFP		EC50		0.0024 µM
CCN1CCc2c(sc(NC(=O)c3c(F)c(F)c(F)c(F)c3F)c2C(N)=O)C1			low oxygen		MIC		50 µM
CC1COc2c(N3CCN(C)CC3)c(F)cc3c(=O)c(C(=O)O)cn1c23	100 isolates				MIC90		>4 µg/mL
O=C1c2cc(Br)ccc2-n2c1nc1cnccc1c2=O	H37Rv				MIC		0.13 µg/mL
COc1ccc(C(=O)/C=C/c2ccc(F)cc2)cc1F	H37Rv		MTT	21 d	MIC		128 µg/mL
C[C@@H]1O[C@@H](Oc2c(-c3ccc(O)c(O)c3)oc3cc(O)cc(O)c3c2=O)[C@H](O)[C@H](O)[C@H]1O	H37Rv		BACTEC		MIC		≥128 µg/mL
CCOC(=O)c1ccc2c(c1)nc(-c1ccc([N+](=O)[O-])cc1)n2CCN1CCCOC1	H37Rv		resazurin / fluorescence		MIC		>100 µM
Cc1cnc(/C=N/NC(N)=S)cn1	KM-R				MIC		12.5 µg/mL
CCOC(=O)c1ccc2nc(-c3ccc([N+](=O)[O-])cc3)[nH]c2c1	H37Rv		resazurin / fluorescence		MIC		>100 µM
CC(CNCCNCCC(c1ccccc1)c1ccccc1)c1ccccc1					MIC		50 µM
CCc1nc2cc(C)c(C)cn2c1C(=O)NCc1ccc(N2CCN(S(=O)(=O)C(F)(F)F)C=N2)c(F)c1			GFP		EC50		0.0057 µM
CN[C@@H]1[C@H](O[C@H]2[C@H](O[C@H]3[C@H](O)[C@@H](O)[C@H](N=C(N)N)[C@@H](O)[C@@H]3N=C(N)N)O[C@@H](C)[C@]2(O)C=O)O[C@@H](CO)[C@H](O)[C@H]1O	H37Rv				MIC		0.3 µg/mL
CO[C@@]12[C@H](COC(N)=O)C3=C(C(=O)C(C)=C(N)C3=O)N1C[C@H]1[C@@H]2N1C(=O)C1N2C(=O)[C@@H](NC(=O)Cc3ccccc3)[C@H]2SC1(C)C	TAC-R				MIC		<0.1 µg/mL
O=C(/C=C/c1ccccc1Cl)c1ccc(F)cc1	H37Rv		MTT	7 d	MIC		32 µg/mL
COc1nc2cc3c(cc2n2cccc12)oc1ccccc13	H37Rv		BACTEC		inhibition	12.5 µg/mL	-2%
CC(CNCCc1ccccc1F)NC1CCCC(C)C1C					MIC		>50 µM
O=C1c2c(O)cccc2[C@H]([C@@H]2O[C@H](CO)[C@@H](O)[C@H](O)[C@H]2O)c2cc(CO)cc(O)c21	H37Rv		BACTEC		inhibition	12.5 µg/mL	-8%
CCN1CCc2c(sc(NC(=O)c3c(F)c(F)c(F)c(F)c3F)c2C(=O)NC)C1	ATCC35838		turbidity		EC90		3.3 µM
CC1(C)SCCCCCCCSC(C)(C)SCCCCCCCS1	H37Rv		BACTEC		inhibition	12.5 µg/mL	16%
N#Cc1c(NC(=O)c2c(F)c(F)c(F)c(F)c2F)sc2c1CCOC2	H37Rv	gyrA mutant (D94N)	turbidity		EC50		4.9 µM
CC(C)=CC(=O)O[C@@H]1[C@H]2C(C)=CC(=O)C(O)[C@]2(C)[C@H]2[C@@]3(O)OC[C@@]24[C@@H]1OC(=O)C[C@H]4[C@@H](C)[C@H]3O	H37Rv		BACTEC		MIC		≥12.5 µg/mL
CCCCS(=O)(=O)Nc1ccc2[nH]c(CNC(=O)c3ccccc3)c(C)c2c1	H37Rv		resazurin		MIC90		6.25 µM
Cc1ccc(Nc2ccc(N=Nc3ccc(N=Nc4cccc(S(=O)(=O)O)c4)c4ccccc34)c3cccc(S(=O)(=O)O)c23)cc1	H37Rv		BACTEC		MIC		≥128 µg/mL
CO[C@H]1/C=C/O[C@@]2(C)Oc3c(C)c(O)c4c(O)c(c(/C=N/N5CCN(C/C=C/c6ccccc6)CC5)c(O)c4c3C2=O)NC(=O)/C(C)=C\C=C\[C@H](C)[C@H](O)[C@@H](C)[C@@H](O)[C@@H](C)[C@H](OC(C)=O)[C@@H]1C	2257 (RIF-S)				MIC		0.03 µg/mL

8 of the rows above, restated:

structure	strain or isolate	changes	method	setting	endpoint	dose	result
CN[C@@H]1[C@H](O[C@H]2[C@H](O[C@H]3[C@H](O)[C@@H](O)[C@H](N=C(N)N)[C@@H](O)[C@@H]3N=C(N)N)O[C@@H](C)[C@]2(O)C=O)O[C@@H](CO)[C@H](O)[C@H]1O	H37Rv				MIC		0.3 µg/mL
COC1=NN(c2ccc(CNC(=O)c3c(C(F)F)nc4ncc(Cl)cn34)cc2F)CCN1S(=O)(=O)C(F)(F)F			GFP		EC50		0.0024 µM
COc1ccc(C=C2C=C(C(C)(C)C)C(=O)C(C(C)(C)C)=C2)cc1	H37Rv		BACTEC		MIC bound		≤12.5 µg/mL
c1ccc(C(CCNCCN2CCCCC2)c2ccccc2)cc1					MIC		50 µM
O=C(/C=C/c1ccccc1)c1ccccc1	H37Rv		resazurin	7 d	MIC		16 µg/mL
NC[C@@H]1O[C@H](O[C@H]2[C@@H](O)[C@H](O[C@@H]3[C@@H](O)[C@H](N)C[C@H](N)[C@H]3O[C@H]3O[C@H](CO)[C@@H](O)[C@H](O)[C@H]3N)O[C@@H]2CO)[C@H](N)[C@@H](O)[C@@H]1O	MTB21 (S)				MIC		<0.09 µg/mL
CCOC(=O)c1c(NC(=O)c2c(F)c(F)c(F)c(F)c2F)sc2c1CCNC2=O	ATCC35838		turbidity		EC50		0.34 µM
CCCCCCCCCCCNCCNC(C)CC					MIC		25 µM